Values from PubChem BioAssay AID1259414 (Drosophila RNAi Screening Center, 2018).

- Assay: 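Host factors increasing or decreasing Wolbachia levels in cultured fly cells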 (primary screen)
- System: Drosophila JW18 cells infected with Wolbachia
- Reagents: long dsRNA against Drosophila genes, 0.25 µg dsRNA per well of a 384-well plate
- Time to read-out: 5 days
- Conditions: cells persistently infected with Wolbachia before knock-down; no added drug
- Detection: 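Automated imaging of bacterial rRNA staining divided by host cell count, reported as plate-normalised robust z-score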
- Scale: Wolbachia per cell robust z: higher = more Wolbachia per host cell than the plate typical
- Call rule: 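Active if absolute robust z reaches 1.5 in two or more of three replicates, leaving out multi- or no-target dsRNAs, genes unexpressed in JW18 and A1 wells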
The screen tested about 24,000 reagents; shown is an unselected part of those with a known target gene and a result. Of all reagents, about 1,210 (5%) were called active. 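Inactive calls also include excluded dsRNAs with several or no targets, genes unexpressed in JW18, and well A1, regardless of score.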 A number with no mark means an inactive call. Reagent sequences are not shown.

no.	gene knocked down	dsRNA	Wolbachia per cell robust z, rep 1	Wolbachia per cell robust z, rep 2	Wolbachia per cell robust z, rep 3
1	CG10973	DRSC09813	-0.379	1.31	0.37
2	CG4041	DRSC18339	0.76	0.499	-0.00689
3	CG4041	DRSC26992	1.32	1.68	0.72
4	cpb (capping protein beta)	DRSC00809	-6.74 (active)	-1.29	-1.84
5	cpb (capping protein beta)	DRSC29870	0.492	0.782	0.186
6	CG32987	DRSC22373	-1.04	-0.123	-0.689
7	CG32987	DRSC28687	-2.99	-1.03	0.547
8	PIG-Wa (Phosphatidylinositol glycan anchor biosynthesis class W a)	DRSC00728	0.659	0.0804	-6.46
9	Efa6 (Exchange factor for Arf 6)	DRSC13569	-0.277	0.332	0.471
10	Efa6 (Exchange factor for Arf 6)	DRSC16141	-3.93	-0.182	0.717
11	Efa6 (Exchange factor for Arf 6)	DRSC29705	-5.39	0.769	-0.0877
12	CG42369	DRSC03244	-0.227	0.122	-0.35
13	CheB42c (Chemosensory protein B 42c)	DRSC04972	-1.66	0.166	-1.04
14	CheB42c (Chemosensory protein B 42c)	DRSC27357	-5.57 (active)	-1.46	-6.73
15	CG5089	DRSC06914	0.833	0.616	-0.456
16	CG5089	DRSC30089	-0.0678	-0.295	-0.2
17	eEF2 (eukaryotic translation elongation factor 2)	DRSC03737	1.2	1.34	1.39
18	Surf1 (Surfeit 1)	DRSC11295	0.296	0.161	0.382
19	Surf1 (Surfeit 1)	DRSC11394	-0.432	-1.83	0.64
20	CG4768	DRSC19917	-2.22	0.154	-1.77
21	CG31245	DRSC15498	-0.159	-0.0941	-0.0685
22	alpha-Man-Ib (alpha-Mannosidase class I b)	DRSC14418	0.648	-7.1	-0.474
23	alpha-Man-Ib (alpha-Mannosidase class I b)	DRSC26131	-0.456	-0.0911	0.184
24	CG7054	DRSC16185	-0.316	-0.301	0.239
25	CG7054	DRSC26659	0.747	0.823	-0.292
26	Gbp3 (Growth-blocking peptide 3)	DRSC15206	0.246	0.295	-0.142
27	CG12523	DRSC09895	0.267	0.0781	-1.24
28	CG12523	DRSC25151	-0.11	-0.482	-0.675
29	CG42392	DRSC40618	-0.805	-0.99	0.288
30	Nrx-1 (Neurexin 1)	DRSC16184	-0.147	1.1	-0.0922
31	CG15628	DRSC00256	-0.201	0.494	-0.258
32	CG15628	DRSC00463	0.0277	-0.703	-0.0126
33	Gr33a (Gustatory receptor 33a)	DRSC02589	1	1.25	0.93
34	ZIPIC (Zinc-finger protein interacting with CP190)	DRSC16349	-0.488	-1.93	-0.0659
35	CG1492	DRSC19605	-1.4	-0.374	-0.713
36	CG33752	DRSC38874	0.302	-1.39	1.05
37	CG4627	DRSC06873	-0.245 (active)	-4.29	-2.39
38	VGAT (Vesicular GABA Transporter)	DRSC07160	1.26	0.819	1.19
39	CG12983	DRSC11692	0.956	0.686	0.528
40	gammaSnap2 (gamma Soluble NSF attachment protein 2)	DRSC15992	0.255	-1.11	1.02
41	Obp56i (Odorant-binding protein 56i)	DRSC05812	-0.328	-8.57	-0.355
42	bt (bent)	DRSC17129	-2.33	-0.692	-2.64
43	bt (bent)	DRSC17171	0.465	-1.57	-0.443
44	bt (bent)	DRSC36656	0.135	-1.06	1.44
45	CG13127	DRSC02223	-1.93	0.806	-1.1
46	CG13127	DRSC29726	0.92	0.906	-5.48

In a second layout: results already given
{"gene knocked down": "alpha-Man-Ib (alpha-Mannosidase class I b)", "dsRNA": "DRSC14418", "Wolbachia per cell robust z, rep 1": 0.648, "Wolbachia per cell robust z, rep 2": -7.1, "Wolbachia per cell robust z, rep 3": -0.474}
{"gene knocked down": "alpha-Man-Ib (alpha-Mannosidase class I b)", "dsRNA": "DRSC26131", "Wolbachia per cell robust z, rep 1": -0.456, "Wolbachia per cell robust z, rep 2": -0.0911, "Wolbachia per cell robust z, rep 3": 0.184}
{"gene knocked down": "CG7054", "dsRNA": "DRSC16185", "Wolbachia per cell robust z, rep 1": -0.316, "Wolbachia per cell robust z, rep 2": -0.301, "Wolbachia per cell robust z, rep 3": 0.239}
